Source: patent publication US10345292B2, “Mammalian cell lines expressing functional nematode acetylcholine receptors and use thereof for high-throughput screening assays” (priority 2014, dated 2019)

Tested on: Hco ACR-16/hRIC3 stable cell line (Flp-In-293-Hco ACR-16 hRic3)
Test: Video-imaging fluorescence Ca2+ measurement (Fura-2 AM)
Type: cell-based, Haemonchus contortus
Details: Epibatidine 300 nM following pre-incubation of 10 μM PNU-120596

Clc1ccc(C2CC3CCC2N3)cn1 (centres unmarked) [Epibatidine]
Reaction Time, Mean: 17.69 | Reaction Time, Median: 15.03
